Assay results from BindingDB's records for 12904075.

Protein sequences, listed by entry. Tags and fused reporters are not part of them.
UniProt Q14761, whole entry, looked up: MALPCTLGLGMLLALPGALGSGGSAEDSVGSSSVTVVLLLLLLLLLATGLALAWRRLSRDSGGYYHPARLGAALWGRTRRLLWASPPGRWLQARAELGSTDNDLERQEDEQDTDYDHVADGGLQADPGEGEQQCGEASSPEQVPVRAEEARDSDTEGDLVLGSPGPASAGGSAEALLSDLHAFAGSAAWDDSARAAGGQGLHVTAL

Target: Protein tyrosine phosphatase receptor type C-associated protein (Homo sapiens, UniProt Q14761)
Experiment: ASSAY_NAME: ChEMBL_210866 (CHEMBL812679) DESCRIPTION: Inhibitory activity against Tyrosine phosphatase from Yersinia (Yop protein)

SMILES: CP(O)(O)=S
- Ki: 7 mM

SMILES: CP(=O)(O)O
- Ki: 30 mM
